For at least one entry, the source does not settle the construct or the ends of the probe. For some of these results: A weaker result is weaker than the reference pair of the same experiment.
Key:
[1] = tested on: GST-rPfPuf2 (Plasmodium falciparum); test: EMSA; settings: LightShift RNA EMSA binding buffer (salt, pH not given), 5% glycerol, 2 ug tRNA per 20 ul, RNase inhibitor, 2.5 nM RNA, 0.25-400 nM rPfPuf2, room temperature 20 min; recombinant protein; protein details: GST; label: biotin (unlabeled as competitor)
[2] = tested on: GST-rPfPuf2 (Plasmodium falciparum); test: competition with a labelled probe; settings: LightShift RNA EMSA binding buffer (salt, pH not given), 5% glycerol, 2 ug tRNA per 20 ul, RNase inhibitor, 2.5 nM RNA, 0.25-400 nM rPfPuf2, room temperature 20 min, recombinant protein, protein details: GST, label: biotin (unlabeled as competitor)
[3] = letters put together from the description

Sequence	binding result [1]	binding result [2]	binding result [2, 3]
AUUAUUUUGUUGUCGAAAAUUGUACAUAAGCC [hb NRE]	binds	binds more weakly	–
GAAAUGUUCUUUUGUAAUUAUAUUUUGUUCGAUGAUUC [pfs28 RNA1]	–	–	binds
UUCUCAUUUGUUAAUAAAUUGUUGUGAAAACAA [pfs25 RNA1]	–	–	binds
